From patent US8617819B2, “Polymers for analyte detection” (Massachusetts Institute of Technology, priority 2004, dated 2013)

Assay: quantum yield of streptavidin-bound dyes on direct excitation in presence of polymer 1
Type: physicochemical
Conditions: direct excitation at dye absorbance maximum

| Substance | decrease of quantum yield in the presence of polymer 1 |
| --- | --- |
| RhB-strept: rhodamine B-labeled streptavidin, about 4.6 dyes/protein | about 38% |
| T-red-strept: Texas Red X-labeled streptavidin, about 2.9 dyes/protein | about 63% |
